## Potato spindle tuber viroid, loop 6: variant abundance in plants

The measurements come from Wu et al. 2024 (doi:10.1371/journal.ppat.1012142).

The pool varies loop 6 of the PSTVd intermediate strain in the pattern UNNNCGNNNG; wild type is UGACCGCGAG (upper and lower strand joined, each 5' to 3', the first 5 letters being the upper strand, closing pairs included).

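A pool of all variants was put on leaves of three Nicotiana benthamiana plants. Progeny were sequenced from the inoculated region (day 5), the margin of the inoculated leaf (day 10) and systemic leaves (day 12).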

Numbers give reads per thousand; 0 = not seen among the reads, higher = more abundant. Each site shows the three plants. "Pool" is the share in the plasmid pool used as inoculum, on the same scale. The inoculated region was read from the minus strand, the other sites from the plus strand. For reference, wild type rose from 20.7 per thousand in the pool to 195, 198, 203 (inoculated region), 629, 591, 734 (leaf margin) and 942, 870, 868 (systemic leaves). The authors trace changes outside the varied positions to PCR and sequencing errors or to mutation in the plant; presence does not show that a variant is infectious alone. With 36,220-57,551 reads a sample, very low values are single reads.

For UGCCCGGUCG (pool 0.222) the result was inoculated region 0.0174 / 0.108 / 0.0553; leaf margin 0 / 0 / 0.0232; systemic leaves 0 / 0 / 0.
For UUAGCGGUCG (pool 0.261) the result was inoculated region 0.0695 / 0.0898 / 0.0553; leaf margin 0.0276 / 0 / 0; systemic leaves 0 / 0 / 0.
For UGCACGCUUG (pool 0.327) the result was inoculated region 0.104 / 0.0180 / 0.0738; leaf margin 0 / 0 / 0; systemic leaves 0 / 0 / 0.
For UGGGCGUACG (pool 0.157) the result was inoculated region 0.104 / 0.0898 / 0.0369; leaf margin 0 / 0 / 0.0232; systemic leaves 0 / 0 / 0.
For UACACGGACG (pool 0.118) the result was inoculated region 0.608 / 0.647 / 0.314; leaf margin 0.166 / 0.0757 / 0; systemic leaves 0 / 0.0404 / 0.0205.
For UAAGCGAGGG (pool 0.379) the result was inoculated region 0.104 / 0.0719 / 0.0369; leaf margin 0.0276 / 0 / 0.0232; systemic leaves 0 / 0 / 0.
For UCUCCGGUGG (pool 0.144) the result was inoculated region 0.139 / 0.0719 / 0.203; leaf margin 0 / 0.0252 / 0; systemic leaves 0 / 0 / 0.
For UCCCCGCCGG (pool 0.248) the result was inoculated region 0.0869 / 0.0539 / 0.148; leaf margin 0.0276 / 0 / 0; systemic leaves 0 / 0 / 0.
For UGUCCGAUCG (pool 0.183) the result was inoculated region 0.0695 / 0.108 / 0.0369; leaf margin 0 / 0 / 0; systemic leaves 0 / 0 / 0.
For UGGUCGUCAG (pool 0.314) the result was inoculated region 0.122 / 0.126 / 0.0553; leaf margin 0 / 0 / 0; systemic leaves 0 / 0 / 0.
For UAAACGCUUG (pool 0.235) the result was inoculated region 0.0695 / 0.0719 / 0.0738; leaf margin 0 / 0 / 0.0232; systemic leaves 0 / 0 / 0.
For UUAUCGGAAG (pool 0.144) the result was inoculated region 0.730 / 0.647 / 0.535; leaf margin 0.138 / 0.0757 / 0.0696; systemic leaves 0 / 0 / 0.
For UAGACGUAGG (pool 0.183) the result was inoculated region 0.0869 / 0.108 / 0.0369; leaf margin 0 / 0 / 0.0232; systemic leaves 0 / 0 / 0.
For UGUCCGAUAG (pool 0.314) the result was inoculated region 0.156 / 0.162 / 0.111; leaf margin 0 / 0 / 0.162; systemic leaves 0 / 0 / 0.
For UGACCGGAUG (pool 0.471) the result was inoculated region 0.295 / 0.162 / 0.129; leaf margin 0.580 / 0.151 / 0.0232; systemic leaves 0.0180 / 0.0404 / 0.595.
For UACCCGACAG (pool 0.248) the result was inoculated region 0.191 / 0.126 / 0.0738; leaf margin 0 / 0 / 0; systemic leaves 0 / 0 / 0.
For UACGCGAUAG (pool 0.196) the result was inoculated region 0.0695 / 0.108 / 0.148; leaf margin 0.0276 / 0 / 0.302; systemic leaves 0 / 0 / 0.
For UGGGCGACAG (pool 0.196) the result was inoculated region 0.122 / 0.0539 / 0.148; leaf margin 0 / 0 / 0; systemic leaves 0 / 0 / 0.
For UCACCGGUCG (pool 0.314) the result was inoculated region 0.0521 / 0.0719 / 0.0738; leaf margin 0.0276 / 0 / 0.0232; systemic leaves 0 / 0 / 0.
For UUACCGAACG (pool 0.170) the result was inoculated region 0.643 / 0.539 / 0.682; leaf margin 0.166 / 0.177 / 0.0464; systemic leaves 0 / 0 / 0.
For UGGCCGUCUG (pool 0.340) the result was inoculated region 0.104 / 0.180 / 0.221; leaf margin 0 / 0 / 0.0232; systemic leaves 0 / 0 / 0.0205.
For UAGACGUGUG (pool 0.288) the result was inoculated region 0.174 / 0.126 / 0.0922; leaf margin 0 / 0 / 0; systemic leaves 0 / 0 / 0.
For UGGGCGCUCG (pool 0.183) the result was inoculated region 0.139 / 0.0719 / 0.0553; leaf margin 0 / 0 / 0.0232; systemic leaves 0 / 0 / 0.
For UGUGCGGUGG (pool 0.288) the result was inoculated region 0.0869 / 0.108 / 0.129; leaf margin 0.0276 / 0 / 0.0232; systemic leaves 0 / 0 / 0.
For UUGCCGUAGG (pool 0.261) the result was inoculated region 0.191 / 0.108 / 0.0922; leaf margin 0 / 0 / 0.0232; systemic leaves 0 / 0 / 0.
For UAUCCGCACG (pool 0.170) the result was inoculated region 0.799 / 0.521 / 0.369; leaf margin 0.0276 / 0.151 / 0.0232; systemic leaves 0 / 0 / 0.
For UUACCGACAG (pool 0.327) the result was inoculated region 0.139 / 0.126 / 0.166; leaf margin 0 / 0 / 0; systemic leaves 0 / 0 / 0.
For UGAGCGAAAG (pool 0.0915) the result was inoculated region 0.174 / 0.0539 / 0.0738; leaf margin 0 / 0 / 0; systemic leaves 0 / 0 / 0.
For UUUUCGGGGG (pool 0.0915) the result was inoculated region 0.139 / 0.108 / 0.0738; leaf margin 0 / 0 / 0.0232; systemic leaves 0 / 0 / 0.
For UGAACGUACG (pool 0.196) the result was inoculated region 0.0521 / 0.162 / 0.221; leaf margin 0.0552 / 0 / 0.0232; systemic leaves 0 / 0 / 0.
For UGAACGCCGG (pool 0.209) the result was inoculated region 0.174 / 0.198 / 0.148; leaf margin 0 / 0 / 0.0232; systemic leaves 0 / 0 / 0.
For UGAGCGUUUG (pool 0.471) the result was inoculated region 0.0869 / 0.108 / 0.0738; leaf margin 0.0276 / 0 / 0; systemic leaves 0 / 0 / 0.
For UAACCGAUGG (pool 0.131) the result was inoculated region 0.0521 / 0.144 / 0.111; leaf margin 0 / 0 / 0.0232; systemic leaves 0 / 0 / 0.
For UGGACGGGUG (pool 0.248) the result was inoculated region 0.643 / 0.772 / 0.461; leaf margin 0.0828 / 0.0252 / 0.116; systemic leaves 0 / 0.162 / 0.0205.
For UUAUCGGGCG (pool 0.275) the result was inoculated region 0.712 / 0.575 / 0.535; leaf margin 0.110 / 0.151 / 0.0928; systemic leaves 0 / 0 / 0.
For UACACGCAGG (pool 0.196) the result was inoculated region 0.122 / 0.162 / 0.0922; leaf margin 0 / 0 / 0.0232; systemic leaves 0 / 0 / 0.
For UUUGCGACCG (pool 0.157) the result was inoculated region 0.0695 / 0.0359 / 0.0922; leaf margin 0 / 0 / 0.0232; systemic leaves 0 / 0 / 0.
For UAUACGGUUG (pool 0.196) the result was inoculated region 0.139 / 0.162 / 0.166; leaf margin 0 / 0 / 0; systemic leaves 0 / 0 / 0.
For UCUUCACGAG (pool 0.0131) the result was inoculated region 0.0174 / 0 / 0.0184; leaf margin 0 / 0.101 / 0; systemic leaves 0 / 0 / 0.

The opening 5 entries, copied out:

UGCCCGGUCG (pool 0.222) read inoculated region 0.0174 / 0.108 / 0.0553; leaf margin 0 / 0 / 0.0232; systemic leaves 0 / 0 / 0.
UUAGCGGUCG (pool 0.261) read inoculated region 0.0695 / 0.0898 / 0.0553; leaf margin 0.0276 / 0 / 0; systemic leaves 0 / 0 / 0.
UGCACGCUUG (pool 0.327) read inoculated region 0.104 / 0.0180 / 0.0738; leaf margin 0 / 0 / 0; systemic leaves 0 / 0 / 0.
UGGGCGUACG (pool 0.157) read inoculated region 0.104 / 0.0898 / 0.0369; leaf margin 0 / 0 / 0.0232; systemic leaves 0 / 0 / 0.
UACACGGACG (pool 0.118) read inoculated region 0.608 / 0.647 / 0.314; leaf margin 0.166 / 0.0757 / 0; systemic leaves 0 / 0.0404 / 0.0205.